Test system: Nc1ncnc2c1ncn2[C@@H]1O[C@H](COP(=O)(O)OP(=O)(O)OP(=O)(O)O)[C@@H](O)[C@H]1O
Assay: cells, lysate or membranes
Details: 30 °C, Mg-ATP
[1] = M2-Del905 (deletion of L905, same sequence as deletion of L904)

Substance: Cdr1p (Cdr1p-GFP) (Candida albicans SC5314; DEL903-903)
- Km (M2-Del903 (deletion of T903)): 6.7 ± 0.8 mM
- Vmax (M2-Del903 (deletion of T903)): 0.0453 µmol/min/mg

Substance: Cdr1p (Cdr1p-GFP) (Candida albicans SC5314; DEL905-905)
- Km [1]: 2.9 ± 0.8 mM
- Vmax [1]: 0.0992 µmol/min/mg
